Laboratory results: PubChem BioAssay AID504761 (Drosophila RNAi Screening Center, 2011)
In all, the deposit lists about 22,000 reagents; shown is a random part of those with a known target gene and a result. Over the whole deposit, 116 (0.52%) got an active call. 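Calls depend on retest data that are not deposited; infection was ranked per plate without normalising between plates; the unit of the infection score is not given.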 The raw values are shown without normalisation. Names joined by + are all predicted targets of the reagent. The record does not give: the amount of reagent, the time to read-out.

Aim: 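Genome-wide fly cell screen for genes dengue virus requires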 (primary screen)
Cells: D.Mel-2 cells from Drosophila
Reagents: long dsRNA against Drosophila genes
Conditions: infection with dengue virus type 2; dose and infection time not stated
Read-out: 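Per well on two replicate plates, imaging gave the percent of cells positive for viral envelope protein, ranked by infection, and a nuclear count of cells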
Scale: infection score: higher = more virus-infected cells; cell count: higher = more cells in the well
Call rule: 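Very low infection ranking in both replicate wells (chance probability at most 0.065), then a retest showing infection dropped 1.5-fold or more at p below 0.05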
Meaning of the calls: active = confirmed: knock-down lowers infection; inactive = not picked or not confirmed

For alpha-Est10 [DRSC12613], what does the deposit list?
infection score, replicate 1: 0.7; infection score, replicate 2: 1.57; cell count, replicate 1: 6408; cell count, replicate 2: 6238; Call: active

For alpha-Est10 [DRSC25456], what does the deposit list?
infection score, replicate 1: 4.43; infection score, replicate 2: 1.77; cell count, replicate 1: 6213; cell count, replicate 2: 6155; Call: inactive

For THADA [DRSC23476], what was measured?
infection score, replicate 1: 2.23; infection score, replicate 2: 2.2; cell count, replicate 1: 6769; cell count, replicate 2: 6648; Call: inactive

For Eglp2 [DRSC04294], how do the results read?
infection score, replicate 1: 3.43; infection score, replicate 2: 11.8; cell count, replicate 1: 6417; cell count, replicate 2: 5533; Call: inactive

How did the screen score CG8152 [DRSC07083]?
infection score, replicate 1: 16.7; infection score, replicate 2: 26; cell count, replicate 1: 5640; cell count, replicate 2: 4757; Call: inactive

For CG11191 [DRSC23224], what does the deposit list?
infection score, replicate 1: 1.09; infection score, replicate 2: 2.22; cell count, replicate 1: 6631; cell count, replicate 2: 6655; Call: inactive

With CG11191 [DRSC28710], what was measured?
infection score, replicate 1: 27.6; infection score, replicate 2: 15.4; cell count, replicate 1: 5820; cell count, replicate 2: 5419; Call: inactive

With CG12655 [DRSC20678], how do the results read?
infection score, replicate 1: 5.58; infection score, replicate 2: 3.3; cell count, replicate 1: 5523; cell count, replicate 2: 4762; Call: inactive

Which result is listed for pug [DRSC17036]?
infection score, replicate 1: 6.84; infection score, replicate 2: 26.5; cell count, replicate 1: 6154; cell count, replicate 2: 4020; Call: inactive

What did the screen give for pug [DRSC29896]?
infection score, replicate 1: 24.3; infection score, replicate 2: 7.19; cell count, replicate 1: 5887; cell count, replicate 2: 6449; Call: inactive

What did the screen give for robo1 [DRSC04712]?
infection score, replicate 1: 9.37; infection score, replicate 2: 7.66; cell count, replicate 1: 6934; cell count, replicate 2: 7036; Call: inactive

What is on record for CG5866 [DRSC15900]?
infection score, replicate 2: 16.1; cell count, replicate 1: 462; cell count, replicate 2: 4731; Call: inactive

For nes [DRSC11375], what does the deposit list?
infection score, replicate 1: 3.01; infection score, replicate 2: 9.57; cell count, replicate 1: 5756; cell count, replicate 2: 5537; Call: inactive

With CG4000 [DRSC15535], what was measured?
infection score, replicate 1: 7.97; infection score, replicate 2: 8.77; cell count, replicate 1: 6310; cell count, replicate 2: 6339; Call: inactive

With CG4000 [DRSC21547], what was measured?
infection score, replicate 1: 1.35; infection score, replicate 2: 3.32; cell count, replicate 1: 5937; cell count, replicate 2: 6204; Call: inactive

With CG4000 [DRSC25094], what was measured?
infection score, replicate 1: 3.74; infection score, replicate 2: 1.62; cell count, replicate 1: 6713; cell count, replicate 2: 6287; Call: inactive

What is on record for tilB [DRSC20634]?
infection score, replicate 1: 4.83; infection score, replicate 2: 3.78; cell count, replicate 1: 5014; cell count, replicate 2: 5367; Call: inactive

What did the screen give for CG18542 + CG32939 [DRSC15342]?
infection score, replicate 1: 7.7; infection score, replicate 2: 18.7; cell count, replicate 1: 6558; cell count, replicate 2: 6316; Call: inactive

For CSN7 [DRSC06807], what was measured?
infection score, replicate 1: 31.8; infection score, replicate 2: 22.2; cell count, replicate 1: 3260; cell count, replicate 2: 5192; Call: inactive

What is on record for CSN7 [DRSC06808]?
infection score, replicate 1: 6.98; infection score, replicate 2: 10.5; cell count, replicate 1: 6006; cell count, replicate 2: 6367; Call: inactive

How did the screen score gcl [DRSC07623]?
infection score, replicate 1: 5.87; infection score, replicate 2: 5.29; cell count, replicate 1: 6147; cell count, replicate 2: 6780; Call: inactive

With gcl [DRSC27995], how do the results read?
infection score, replicate 1: 18.1; infection score, replicate 2: 21.1; cell count, replicate 1: 6531; cell count, replicate 2: 5378; Call: inactive

2 successive entries already listed, for reference:
CG11191 [DRSC28710] | infection score, replicate 1: 27.6; infection score, replicate 2: 15.4; cell count, replicate 1: 5820; cell count, replicate 2: 5419; Call: inactive
CG12655 [DRSC20678] | infection score, replicate 1: 5.58; infection score, replicate 2: 3.3; cell count, replicate 1: 5523; cell count, replicate 2: 4762; Call: inactive
